Values from PubChem BioAssay AID624099 (ICCB-Longwood, 2012).

Assay: 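Host factors E2 relies on to silence an HPV18 LCR reporter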 (primary screen)
System: human C33A cervical carcinoma cells (HPV-negative) stably expressing BPV1 E2 and an HPV18 LCR luciferase reporter
Knock-down reagent: siRNA pool against human genes, 40 nM
Timing: 72 h
Measured: 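HPV18 LCR reporter light per well, converted to plate-wise z-scores that exclude control wells, and averaged over triplicate plates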
Direction: mean z-score and z-score: higher = stronger reporter signal, weaker E2 silencing
Rule for the call: 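Hit if mean z-score reaches 2 and two or more of three replicate z-scores also reach 2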
The deposit covers about 21,000 reagents; this is a random part of them. In the full data, 497 (2.4%) were called active. 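Higher z means weaker E2 silencing; only reporter increases were scored, and knock-downs that hurt cell survival may mask genuine repressor factors.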 A number with no mark means an inactive call. Reagents against one gene are numbered here. No sequences are given here.

no.	gene	pool no.	mean z-score	z-score, replicate A	z-score, replicate B	z-score, replicate C
1	ZNF548 (GeneID 147694)	1	-1.49	-1.83	-1.14	-1.49
2	RFPL4A (GeneID 342931)	1	0.04	0.2	0.17	-0.27
3	STT3A (GeneID 3703)	1	-0.25	-0.07	-0.5	-0.18
4	NEURL1 (GeneID 9148)	1	0.46	0.24	0.6	0.53
5	LOC402506 (retired record) (GeneID 402506)	1	0.59	0.76	0.49	0.52
6	ITPR2 (GeneID 3709)	1	1.48	1.73	1.27	1.45
7	TXNRD1 (GeneID 7296)	1	-0.34	0.13	-0.44	-0.72
8	KIAA1191 (GeneID 57179)	1	-0.5	-0.78	-0.33	-0.4
9	COL18A1-AS1 (GeneID 378832)	1	-0.16	-0.09	-0.01	-0.38
10	EIF3F (GeneID 8665)	1	-1.88	-1.79	-2	-1.87
11	LOC389182 (retired record) (GeneID 389182)	1	0.06	-0.09	0.3	-0.03
12	TAAR9 (GeneID 134860)	1	2.29 (active)	1.86	2.22	2.8
13	AHCTF1 (GeneID 25909)	1	0.3	0.37	0.44	0.1
14	BHLHE22-AS1 (GeneID 401463)	1	0.52	0.68	0.37	0.5
15	PLA2G1B (GeneID 5319)	1	0.21	0.23	0.13	0.25
16	SH2D4A (GeneID 63898)	1	0.66	0.76	0.48	0.73
17	FAM3A (GeneID 60343)	1	0.39	0.19	0.14	0.85
18	PARP14 (GeneID 54625)	1	-0.16	-0.38	-0.08	-0.02
19	PPFIBP2 (GeneID 8495)	1	-0.58	-0.54	-0.45	-0.75
20	FRAT2 (GeneID 23401)	1	0.11	0.28	-0.11	0.16
21	LMO3 (GeneID 55885)	1	0.38	0.27	0.46	0.42
22	LRRIQ4 (GeneID 344657)	1	-0.12	-0.8	0.4	0.03

Part of the list above, reduced to “mean z-score”.
ITPR2 (GeneID 3709)	1.48
TXNRD1 (GeneID 7296)	-0.34
KIAA1191 (GeneID 57179)	-0.5
COL18A1-AS1 (GeneID 378832)	-0.16
EIF3F (GeneID 8665)	-1.88
LOC389182 (retired record) (GeneID 389182)	0.06
TAAR9 (GeneID 134860)	2.29 (active)
AHCTF1 (GeneID 25909)	0.3
BHLHE22-AS1 (GeneID 401463)	0.52

The listing continues:
no.	gene	pool no.	mean z-score	z-score, replicate A	z-score, replicate B	z-score, replicate C
23	MIA2 (GeneID 4253)	1	-0.56	-0.65	-0.63	-0.39
24	MIA2 (GeneID 4253)	2	-0.22	0.25	-0.2	-0.71
25	BRDT (GeneID 676)	1	0.34	0.28	0.35	0.4
26	CDK18 (GeneID 5129)	1	-0.21	-0.06	-0.42	-0.14
27	TBXA2R (GeneID 6915)	1	-1.68	-1.91	-1.76	-1.37
28	HIRA (GeneID 7290)	1	0.91	0.82	1.02	0.9
29	LOC343705 (retired record) (GeneID 343705)	1	2.1	2	2.42	1.88
30	SERAC1 (GeneID 84947)	1	0.27	0.14	0.11	0.55
31	MYH8 (GeneID 4626)	1	-1.18	-1.14	-1.2	-1.2
32	DOLK (GeneID 22845)	1	-0.19	-0.31	-0.21	-0.04
33	IKBKG (GeneID 8517)	1	2.09 (active)	2.19	1.88	2.2
34	RPLP1P5 (GeneID 130678)	1	0.8	1.09	0.7	0.61
35	ADCY6 (GeneID 112)	1	1.29	1.43	1.15	1.3
36	ACOT7 (GeneID 11332)	1	-0.09	0.26	-0.09	-0.45
37	TMEM235 (GeneID 283999)	1	0.04	-0.41	0.18	0.34
38	TARS2 (GeneID 80222)	1	-0.24	-0.44	-0.08	-0.19
39	C4A (GeneID 720)	1	-0.14	-0.44	-0.27	0.31
40	GPR160 (GeneID 26996)	1	0.68	0.65	0.51	0.89
41	TLCD1 (GeneID 116238)	1	0.05	0.23	-0.23	0.15
42	CTNNBIP1 (GeneID 56998)	1	0.53	-0.08	0.82	0.87
43	FMO9P (GeneID 116123)	1	-0.37	-0.62	-0.6	0.1
44	DHRS1 (GeneID 115817)	1	-0.36	-0.3	-0.2	-0.58
45	TUBA1A (GeneID 7846)	1	-0.07	0.08	0	-0.27
46	SMC3 (GeneID 9126)	1	-0.29	-0.26	-0.23	-0.39
47	ZNF398 (GeneID 57541)	1	-0.91	-1.27	-0.64	-0.83
48	ADGRL1 (GeneID 22859)	1	-0.29	-0.62	0.01	-0.27
49	TSC22D1 (GeneID 8848)	1	0.36	0.26	0.44	0.38
50	TP53INP2 (GeneID 58476)	1	0.78	0.93	1.02	0.39
51	IGHG3 (GeneID 3502)	1	1.36	1.52	1.28	1.28
52	LOC389338 (retired record) (GeneID 389338)	1	-0.86	-0.86	-0.48	-1.24
53	DDX50 (GeneID 79009)	1	-1.12	-1.31	-0.75	-1.29
54	MFAP4 (GeneID 4239)	1	-0.18	0.09	-0.46	-0.18
55	CST3 (GeneID 1471)	1	-1.34	-1.4	-1.24	-1.39
56	CERS2 (GeneID 29956)	1	-1.02	-0.86	-0.92	-1.29
57	PQBP1 (GeneID 10084)	1	-0.69	-0.72	-0.51	-0.83
